A mixed list of measured activities; the numbers were collected in NIAID ChemDB.

Shared fields: growth or infection tests; organism: Mycobacterium tuberculosis

ECn is the concentration giving n% inhibition of infection, replication or growth. An empty or dashed field is not shown. MIC bound comes from a single tested concentration. Two numbers with a dash give a range or band. A number after MIC or MFC names an inhibition level or a share of isolates. Inhibition is in % at the dose shown (toxicity tests: loss of growth or viability). Lines come from different laboratories, so protocols vary.

SMILES	strain	cell line	method	endpoint	dose	result
O=C1CSC(N2CCN(c3ccc(N4C[C@H](CO)OC4=O)cc3F)C=N2)=N1	H37Rv	-	GFP / reporter gene	MIC	-	1000 µg/mL
O=c1[nH]c2ccccc2c(=O)n1-c1cccc([N+](=O)[O-])c1	My 331/88	-	-	MIC	-	200 µM
CN1CCN(c2c(F)cc3c(=O)c(C(=O)O)cn(CCF)c3c2F)CC1	-	-	-	MIC90	-	>4 µg/mL
O=C(CCC(F)(F)F)N1CC(c2cc(F)c(F)c(F)c2)C1	H37Rv	THP-1	fluorescence	EC50	-	0.05–0.25 µM
O=c1oc2ccccc2c(=O)n1-c1cccc(Cl)c1	My 331/88	-	-	MIC	-	31 µM
Cc1ccc(Nc2ccc(Nc3ccc(C)cc3S(=O)(=O)O)c3c2C(=O)c2cccc(O)c2C3=O)c(S(=O)(=O)O)c1	H37Rv	-	BACTEC	MIC bound	-	>12.5 µg/mL
Cc1ccc(-n2c(=O)oc3ccccc3c2=O)cc1	My 331/88	-	-	MIC	-	62 µM
NNC(=O)c1ccncc1	Erdman	-	-	MIC	-	≤0.125 µg/mL
CC(C(=O)OCc1ccccc1)(c1ccco1)N1C(=O)OC(c2ccccc2)C1c1ccccc1	H37Rv	-	BACTEC	inhibition	12.5 µg/mL	27%
CC(C)=CCO[C@@H]1[C@@H](O)C(C)(C)C[C@H]2C3=CC[C@@H]4[C@]56CCC(O)(OC5)C(C)(C)[C@@H]6CC[C@@]4(C)[C@]3(C)CC[C@@]12C(=O)O	H37Rv	-	-	MIC	-	>75 µg/mL
COc1ccc(NC(=O)c2ccccc2N)cc1	My 331/88	-	-	MIC	-	500 µM
CO[C@H]1/C=C/O[C@@]2(C)Oc3c(C)c(O)c4c(c3C2=O)C(=O)C=C(NC(=O)/C(C)=C\C=C\[C@H](C)[C@H](O)[C@@H](C)[C@@H](O)[C@@H](C)[C@H](OC(C)=O)[C@@H]1C)C4=O	-	-	-	MIC	-	12 µg/mL
CO[C@H]1/C=C/O[C@@]2(C)Oc3c(C)c(O)c4c(O)c(c5c(c4c3C2=O)NC2(CCN(CC(C)C)CC2)N=5)=NC(=O)/C(C)=C\C=C\[C@H](C)[C@H](O)[C@@H](C)[C@@H](O)[C@@H](C)[C@H](OC(C)=O)[C@@H]1C	CSU20	-	-	MIC	-	≤0.125 µg/mL
COc1ccc(/C=C2\CSC/C(=C/c3ccc(OC)c(OC)c3OC)C2=O)c(OC)c1OC	H37Rv	-	BACTEC	inhibition	12.5 µg/mL	0%
O=C(Nc1nnc(-c2ccc3c(c2)CCCC3)o1)c1ccc(CC=S)cc1	H37Rv	-	agar	EC90	-	1.93 µg/mL
O=C1C(=O)N(CCCCN2CCN(c3ccnc4cc(Cl)ccc34)CC2)c2ccc(Cl)cc21	MC2 6230	-	-	MIC99	-	10.35 µM
O=C(CCC(F)(F)F)N1CC(c2cccc(Cl)c2)C1	H37Rv	THP-1	fluorescence	EC50	-	<0.05 µM
NS(=O)(=O)N1CCN(c2ccc(N3C[C@H](O)OC3=O)cc2F)C=N1	H37Rv	-	GFP / reporter gene	MIC	-	1000 µg/mL
CO[C@H]1/C=C/O[C@@]2(C)Oc3c(C)c(O)c4c(O)c(c(/C=N/N5CCN(C)CC5)c(O)c4c3C2=O)NC(=O)/C(C)=C\C=C\[C@H](C)[C@H](O)[C@@H](C)[C@@H](O)[C@@H](C)[C@H](OC(C)=O)[C@@H]1C	H37Rv	-	resazurin	MIC90	-	0.06 µg/mL
COC(=N)C1(C#N)NC(c2ccsc2)C(C#N)(C#N)NC1c1ccsc1	H37Rv	-	resazurin	inhibition	6.25 µg/mL	3%
CO[C@H]1/C=C/O[C@@]2(C)Oc3c(C)c(O)c4c(O)c(ccc4c3C2=O)NC(=O)/C(C)=C\C=C\[C@H](C)[C@H](O)[C@@H](C)[C@@H](O)[C@@H](C)[C@H](OC(C)=O)[C@@H]1C	-	-	-	MIC	-	0.5 µg/mL
O=C(CCC(F)(F)F)N1CC(c2ccc(Cl)cc2)C1	H37Rv	THP-1	fluorescence	EC50	-	0.05–0.25 µM
C[C@@H]1CN(c2c(F)c(N)c3c(=O)c(C(=O)O)cn(C4CC4)c3c2F)C[C@H](C)N1	18 strains	-	-	MIC90	-	0.5 µg/mL
O=C(O)c1cccc2c1C(=O)c1cccc3snc-2c13	H37Rv	-	BACTEC	inhibition	12.5 µg/mL	0%
CN(C)c1ccc(-n2c(=O)oc3ccccc3c2=O)cc1	My 331/88	-	-	MIC	-	>125 µM
CC(=O)NC[C@H]1CN(c2ccc(N3C=NN(C(N)=O)CC3)c(F)c2)C(=O)O1	20 clinical isolates	-	resazurin	MIC90	-	250 µg/mL
CC1CN(c2c(F)cc3c(=O)c(C(=O)O)cn(C4CC4)c3c2F)CC(C)N1	CSU26	-	-	MIC	-	0.25 µg/mL
O=C1C(=O)N(CC#CCN2CCN(c3ccnc4cc(Cl)ccc34)CC2)c2ccc(F)cc21	MC2 6230	-	-	MIC99	-	>216 µM
CCN(CC)CCNc1ccc(CO)c2oc3ccccc3c(=O)c12	H37Rv	-	BACTEC	MIC	-	12.5 µg/mL
NNC(=O)c1ccncc1	H37Rv	-	resazurin	MIC90	-	0.12 µg/mL
Cc1cc(-c2cc3c(cc2F)c(=O)c(C(=O)O)cn3C2CC2)cc(C)n1	-	-	-	MIC90	-	>4 µg/mL
NNC(=O)C(=O)NNc1ccccc1	H37Rv	-	BACTEC	MIC bound	-	>12.5 µg/mL
CO[C@H]1/C=C/O[C@@]2(C)Oc3c(C)c(O)c4c(O)c(c5c(c4c3C2=O)NC2(CCN(CC(C)C)CC2)N=5)=NC(=O)/C(C)=C\C=C\[C@H](C)[C@H](O)[C@@H](C)[C@@H](O)[C@@H](C)[C@H](OC(C)=O)[C@@H]1C	H37Rv	-	-	MIC	-	0.062 µg/mL
CO[C@H]1/C=C/O[C@@]2(C)Oc3c(C)c(O)c4c(O)c(cc(OCC(=O)O)c4c3C2=O)NC(=O)/C(C)=C\C=C\[C@H](C)[C@H](O)[C@@H](C)[C@@H](O)[C@@H](C)[C@H](OC(C)=O)[C@@H]1C	-	-	-	MIC	-	1000 µg/mL
O=c1cc2oc3cc(O)c(O)cc3c(-c3ccccc3)c-2cc1O	H37Rv	-	broth dilution	MIC90	-	200 µg/mL
CC(=O)/C=C(/C)[O-].CNC([S-])N/N=C(\C)c1ccccn1.[O]=[V+2]	H37Rv (ATCC 27294)	-	resazurin	MIC	-	3.9 µg/mL
O=C(O)c1nc(-c2ccccc2)ncc1-c1nnnn1-c1ccccc1	H37Rv	-	resazurin	MIC bound	-	>6.25 µg/mL
O=c1[nH]c2ccccc2c(=O)n1-c1ccc(Cl)c(Cl)c1	My 331/88	-	-	MIC	-	>250 µM
C[C@H]1[C@H]2CC[C@H]3[C@@H]4CC=C5C[C@@H](N(C)C)CC[C@]5(C)[C@H]4CC[C@]23CN1C	H37Rv	-	BACTEC	MIC	-	≥128 µg/mL
COC1(c2ccc(F)cc2)CN(C(=O)CCC(F)(F)F)C1	H37Rv	THP-1	fluorescence	EC50	-	<0.05 µM
O=C(O)c1cn(C2CC2)c2c(F)c(N3CCSCC3)c(F)cc2c1=O	CSU22	-	-	MIC	-	1 µg/mL
CC1(C)CC(=O)c2c(oc3cc4c5c(oc4cc23)CC(C)(C)CC5=O)C1	H37Rv	-	BACTEC	MIC bound	-	>12.5 µg/mL
O=C(CCC(F)(F)F)N1CC(c2ccc(Cl)nc2)C1	H37Rv	THP-1	fluorescence	EC50	-	0.05–0.25 µM
NC(=O)c1cnccn1	RCMB 010126	-	-	MIC	-	3.21 µg/mL
CC(C)=CCCC(C)C1=C(O)C(=O)C(C)=CC1=O	H37Rv	-	BACTEC	MIC	-	16 µg/mL
CCn1cc(C(=O)O)c(=O)c2cc(F)c(N3CCNCC3)cc21	-	-	-	MIC90	-	>4 µg/mL
CC(=O)N[C@H]1CN(c2ccc(N3C=NN(C4=NC(=O)CS4)CC3)c(F)c2)C(=O)O1	H37Rv	-	GFP / reporter gene	MIC	-	250 µg/mL
Cc1nc(-c2ccc([N+](=O)[O-])cc2)cn2c1nc1ccccc12	H37Rv	-	BACTEC	inhibition	12.5 µg/mL	0%
Clc1nc(-c2cccs2)nc2c1ncn2Cc1ccccc1	H37Rv	-	BACTEC	EC50	-	>12.5 µg/mL
CCc1cc(C(N)=S)ccn1	-	-	-	MIC	-	2 µg/mL
c1ccc(Cn2cnc3cnc(-c4cccs4)nc32)cc1	H37Rv	-	BACTEC	EC50	-	>12.5 µg/mL
CC(=N\NC(=O)c1ccc([N+](=O)[O-])o1)/C(Cl)=N/Nc1ccc(S(N)(=O)=O)cc1	RCMB 010126	-	-	MIC	-	3.9 µg/mL
CC(C)(C)C(=O)Nc1nnc(-c2ccc(Br)cc2)o1	H37Rv	-	agar	EC90	-	<0.2 µg/mL
C/C=C(/C)C(=O)O[C@@H]1CC(C)(C)C[C@H]2C3=CC[C@@H]4[C@@]5(C)CCC(O)C(C)(C)[C@@H]5CC[C@@]4(C)[C@]3(C)CC[C@@]12C(=O)O	H37Rv	-	-	MIC	-	18 µg/mL
NNC(=O)Cc1nc2ccccc2[nH]c1=O	H37Rv	-	BACTEC	MIC bound	-	>12.5 µg/mL
Cc1ccc2c(c1)C(=O)C(=O)N2CCCCCCCN1CCN(c2ccnc3cc(Cl)ccc23)CC1	MC2 6230	-	-	MIC99	-	>193 µM
CN(C)c1ccc2c(c1)Sc1cc(N(C)C)ccc1N2C(=O)c1ccccc1	H37Rv	-	BACTEC	MIC bound	-	>12.5 µg/mL
O=C(CCC(F)(F)F)N1CC(c2ccc(F)cn2)C1	H37Rv	THP-1	fluorescence	EC50	-	0.05–0.25 µM
Clc1ncnc2c1nc(I)n2Cc1ccccc1	H37Rv	-	BACTEC	EC50	-	>12.5 µg/mL
OCCN1CCN(CCCN2c3ccccc3Sc3ccc(C(F)(F)F)cc32)CC1	H37Rv	-	BACTEC	MIC bound	-	≤12.5 µg/mL
CCCCCCCC(CCCCCCC)CC(=O)O	-	-	-	MIC	-	>1000 µM
Clc1ncnc2c1nc(C#Cc1ccccc1)n2Cc1ccccc1	H37Rv	-	BACTEC	EC50	-	>12.5 µg/mL
C[C@@H]1C(=O)C[C@H]2[C@H]1CC[C@@](C)(O)[C@H]1CC[C@](C)(O1)[C@@H]2O	-	-	-	MIC	-	128 µg/mL
N[C@@H]1CONC1=O	-	-	-	MIC	-	10 µg/mL
CC(=O)/C=C(/C)[O-].CC(=O)/C=C(/C)[O-].[O]=[V+2]	H37Rv (ATCC 27294)	-	resazurin	MIC	-	>50 µg/mL
C1CC[N+]2(CC1)CCCCC2.NC(=S)[S-]	H37Rv	-	BACTEC	inhibition	12.5 µg/mL	99%
Clc1nc(Br)nc2c1ncn2Cc1ccccc1	H37Rv	-	BACTEC	EC50	-	>12.5 µg/mL
O=C1c2c(O)ccc(O)c2C(=O)c2c(NCCNCCO)ccc(NCCNCCO)c21	H37Rv	-	-	MIC bound	-	>6.25 µg/mL
O=C1C(c2[nH]c3ccccc3c2O)=Nc2ccccc21	H37Rv	-	resazurin	MIC90	-	27 µg/mL
O=C(CCC(F)(F)F)N1CC(c2ccc(C(F)(F)F)cn2)C1	H37Rv	THP-1	fluorescence	EC50	-	1–10 µM
C=C(OCC)c1nc(Cl)c2ncn(Cc3ccccc3)c2n1	H37Rv	-	BACTEC	EC50	-	>12.5 µg/mL
CCCCCCCCCCCCC(C(=O)O)c1ccccc1	-	-	-	MIC	-	10 µM
O=C(N/N=C(/CS(=O)(=O)c1ccccc1)c1ccc(F)cc1)c1ccc([N+](=O)[O-])o1	RCMB 010126	-	-	MIC	-	7.81 µg/mL
CCCCN(CCCC)C(=S)S[As](SC(=S)N(CCCC)CCCC)SC(=S)N(CCCC)CCCC	H37Rv	-	BACTEC	MIC bound	-	≤128 µg/mL
O=C(Nc1ccc([N+](=O)[O-])cc1)c1ccccc1O	My 331/88	-	-	MIC	-	8 µM
COC(=O)N[C@H]1CN(c2ccc(N3C=NN(C4=NC(=O)CS4)CC3)c(F)c2)C(=O)O1	20 clinical isolates	-	resazurin	MIC90	-	250 µg/mL
C(#Cc1nc(-c2ccccc2)nc2c1ncn2Cc1ccccc1)c1ccccc1	H37Rv	-	BACTEC	EC50	-	<12.5 µg/mL
Cc1ccc(NC(=O)c2ccccc2N)cc1	My 331/88	-	-	MIC	-	250 µM
C/C(=N\NC([S-])Nc1ccccc1)c1ccccn1.CC(=O)/C=C(/C)[O-].[O]=[V+2]	H37Rv (ATCC 27294)	-	resazurin	MIC	-	1.56 µg/mL
CCCCCCCC/C=C\CCCCCCCC(=O)O	-	-	-	MIC	-	50 µM
CC(C)c1ccc2nc3ccc(C(=O)NCCN4CCN(c5ccccc5)CC4)cn3c(=O)c2c1	H37Rv	-	BACTEC	inhibition	12.5 µg/mL	93%
O=C(CCC(F)(F)F)N1CC(c2cncc(Cl)c2)C1	H37Rv	THP-1	fluorescence	EC50	-	<0.05 µM
CC1(C)OCC2OC3(C(=O)O)OC(C)(C)OC3C2O1	H37Rv	-	BACTEC	inhibition	12.5 µg/mL	33%
O=C(CCC(F)(F)F)N1CC(c2cccc(OC(F)(F)F)c2)C1	H37Rv	THP-1	fluorescence	EC50	-	<0.05 µM
O=C1O[C@@H](CO)CN1c1ccc(N2C=NOCC2)c(F)c1	H37Rv	-	GFP / reporter gene	MIC	-	500 µg/mL

Repeating the final 5 entries:

{"SMILES": "CC(C)c1ccc2nc3ccc(C(=O)NCCN4CCN(c5ccccc5)CC4)cn3c(=O)c2c1", "strain": "H37Rv", "method": "BACTEC", "endpoint": "inhibition", "dose": "12.5 µg/mL", "result": "93%"}
{"SMILES": "O=C(CCC(F)(F)F)N1CC(c2cncc(Cl)c2)C1", "strain": "H37Rv", "cell line": "THP-1", "method": "fluorescence", "endpoint": "EC50", "result": "<0.05 µM"}
{"SMILES": "CC1(C)OCC2OC3(C(=O)O)OC(C)(C)OC3C2O1", "strain": "H37Rv", "method": "BACTEC", "endpoint": "inhibition", "dose": "12.5 µg/mL", "result": "33%"}
{"SMILES": "O=C(CCC(F)(F)F)N1CC(c2cccc(OC(F)(F)F)c2)C1", "strain": "H37Rv", "cell line": "THP-1", "method": "fluorescence", "endpoint": "EC50", "result": "<0.05 µM"}
{"SMILES": "O=C1O[C@@H](CO)CN1c1ccc(N2C=NOCC2)c(F)c1", "strain": "H37Rv", "method": "GFP / reporter gene", "endpoint": "MIC", "result": "500 µg/mL"}